{"source": "patent US20120121679A1", "about": "“VIRICIDAL AND MICROBICIDAL COMPOSITIONS AND USES THEREOF” (University of Georgia Research Foundation, Inc., priority 2009, published 2012)", "origin": "cited, not measured here", "test_system": "FCV", "conditions": "3,000 ppm chlorine, 10 min, room temperature, virus suspended in cell culture media; cited from earlier work"}
{"substance": "chlorine", "values": [{"measurement": "inactivation of FCV", "result": 3, "unit": "log PFU/ml"}]}
